# Values of other authors as cited in publication PMC3811480, “The R Enantiomer of the Antitubercular Drug PA-824 as a Potential Oral Treatment for Visceral Leishmaniasis” (Antimicrobial Agents and Chemotherapy, 2013).
# Tested on: lab-generated strains of nifurtimox-resistant T. brucei
# Details: cited from earlier work
compound,measurement,value
"O=[N+]([O-])c1cn2c(n1)OC[C@@H](OCc1ccc(OC(F)(F)F)cc1)C2 [(S)-PA-824, reference compound]",sensitivity of nifurtimox-resistant T. brucei,no change in sensitivity
